## Results of single-concentration screens

The values are deposited in ChEMBL (CHEMBL3988442, “University of Dundee, Small-Polar-MMV Screening Library” (2021)).

Mtb glucose medium: 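Whole-cell growth test on Mycobacterium tuberculosis, read after 3 days in glucose-containing 7H9 medium; the read-out is not stated. Compounds at 50 µM. Higher reads as more growth inhibition (inferred: compounds with an IC50 in retests scored well above the rest). Of about 69,000 compounds tested this way, about 760 (1.1%) reached 50% or more in at least one test.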
Mtb cholesterol medium: 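Whole-cell growth test on Mycobacterium tuberculosis, read after 4 days in a medium based on cholesterol and the lipid DPPC; the read-out is not stated. Concentration: 50 µM. Higher reads as more growth inhibition (inferred: compounds with an IC50 in retests scored well above the rest). About 69,000 compounds were tested under these conditions; 0.54% (about 370) showed 50% or more at least once.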

Values are the deposited “Percent Effect”, in %. The record does not define 0% and 100%; most values in the screen are far below 50% and negative numbers occur (in some assays of this library far below -100). Many other results are left out here, so strong results are more common than in the screen. Two or more numbers in one place are separate tests of the same structure; such repeats can differ widely. A dash means the value is not listed here; it may have been measured.

With Cc1cc(C2CCC2)nc(N2CCC3(CCNC(=O)CC3)CC2)n1 the screen gave Mtb glucose medium: 27.57%. Result for COc1cccc(NC(=O)c2nc3ccccc3n(C)c2=O)c1 was Mtb glucose medium: 53.92%. N#CCCN1CCC(=Cc2ccccc2)CC1 gave Mtb glucose medium: 12.71%; Mtb cholesterol medium: 6.355%. Cc1cc(C(=O)NCC2Cn3nnc(C)c3CO2)no1 (stereo unspecified) read Mtb glucose medium: 109.5% and 7.13%. Result for CC(C)C(Sc1nnnn1C1CC1)C(=O)NCc1ccccc1 (stereo unspecified) was Mtb glucose medium: 10.92%.

CCOCc1nnc(NCc2ccsc2)o1 read Mtb glucose medium: 60.68%; Mtb cholesterol medium: 36.64%. O=C(c1cn(-c2ccccc2)nn1)N1CCOCC(O)C1 (stereo unspecified) gave Mtb cholesterol medium: 51.2%. With Cc1nc(-n2nc(-c3cccs3)cc2N)[nH]c(=O)c1C the screen gave Mtb glucose medium: 51.09%. CNc1nc2c(s1)C(c1ccc(Cl)cc1Cl)CC(=O)N2 (stereo unspecified) read Mtb glucose medium: 52.85%. Cc1ccc(C(=O)Nc2cn[nH]c2)cn1 gave Mtb glucose medium: -22.09%; Mtb cholesterol medium: -31.4%.

With NC(=O)CSc1nccc(-c2ccc3c(c2)OCO3)n1 the screen gave Mtb glucose medium: -11.86%; Mtb cholesterol medium: -32.14%. Result for COCCN1CCC(CNC(=O)c2cc(C)cc(C)c2)C1 (stereo unspecified) was Mtb glucose medium: 37.33%; Mtb cholesterol medium: 18.01%. CC(C)C(C(=O)N1CCC(Nc2cccnn2)CC1)n1cncn1 (stereo unspecified) read Mtb glucose medium: 15.72%. FC1(F)CCN(Cc2cccnc2)CC12CCN(c1ccccc1)C2.O=C(O)C(F)(F)F.O=C(O)C(F)(F)F.O=C(O)C(F)(F)F (stereo unspecified) gave Mtb glucose medium: 79.68%; Mtb cholesterol medium: 69.67%. Result for Cc1nn(C)cc1S(=O)(=O)NCC(c1ccccc1Cl)N1CCCC1 (stereo unspecified) was Mtb cholesterol medium: 5.794% and 0.3925%.

Cc1cc(C)nc(NC2CCCN(CCCc3ccccc3)C2)n1 (stereo unspecified) gave Mtb glucose medium: -33.12%. Result for CC(=O)Nc1ccc(CN2CCCC(c3cc4ncccc4[nH]3)C2)cc1 (stereo unspecified) was Mtb cholesterol medium: 4.881% and -3.235%. For CN(C(=O)COc1ccc(-c2noc(C3CCCO3)n2)cc1)C1CC1 (stereo unspecified) the result was Mtb glucose medium: 1.003%. With Cc1cc(N(C)Cc2cc(C)on2)n2nc(C)c(C)c2n1 the screen gave Mtb glucose medium: 76.73% and 72%; Mtb cholesterol medium: 66.13%. With CCc1nc(CNc2ccc(F)c(F)c2)no1 the screen gave Mtb glucose medium: 5.382%.

COCCC1(CNC(=O)Nc2ccc(-n3cccn3)cc2)CCC1 gave Mtb glucose medium: 46.95%. Cc1nn(C2CCCC2)c2nc(C(C)(C)CN3CCN(C)CC3)[nH]c12 gave Mtb glucose medium: 71.49%. With Cc1nc(NCCSc2cnn[nH]2)c2cccnc2n1 the screen gave Mtb cholesterol medium: -16.51%. CCCc1cc(C(=O)N2Cc3ccccc3C2)[nH]n1 gave Mtb glucose medium: -13.39%. Result for CC(C)Oc1ccc(CN2CCN3CCN(C)CC3C2)cc1CO (stereo unspecified) was Mtb glucose medium: -4.088% and -1.347%.

Result for CN1CCC(Nc2ccc(F)cc2OCC(F)(F)F)C1=O (stereo unspecified) was Mtb glucose medium: 9.636%. For Cc1cc(C)c2c(N(C)CC3CCN(CC(C)C)C3)ncnc2n1 (stereo unspecified) the result was Mtb cholesterol medium: 5.375%. For [H][C@]12CC[C@]([H])(CN(Cc3cc(-c4ccccc4)no3)C1)N(CC1CC1)C2 the result was Mtb glucose medium: 63.69%; Mtb cholesterol medium: 40.2% and 53.76%. CC1CCCN(C(=O)c2nnn(-c3ccc(C(F)(F)F)cc3)n2)C1 (stereo unspecified) read Mtb glucose medium: 73.16% and 38.68%. Cc1cccc(=O)n1CCCNc1nc(N(C)C)nc2c1CCNC2 gave Mtb glucose medium: -38.14%.

Result for NC(=O)c1ccc(CN2C(=O)C3(CCNCC3)Nc3ccccc32)cc1 was Mtb glucose medium: 14.58%; Mtb cholesterol medium: 3.983%. For O=C(CN1CCCCCC1)NCCSc1cnn[nH]1 the result was Mtb glucose medium: 17.18%; Mtb cholesterol medium: 11.72%. c1csc(N2CCCN(Cc3noc(C4CC4)n3)CC2)n1 read Mtb cholesterol medium: -14.69%. With NC(=O)CN1CCC(C(=O)NCc2ccc3c(c2)OCCCO3)CC1 the screen gave Mtb glucose medium: -6.51%; Mtb cholesterol medium: -13.59%. CC(C)Cc1cc(C(=O)NCc2nnc[nH]2)[nH]n1 gave Mtb glucose medium: -11.02% and 1.064%; Mtb cholesterol medium: -0.1938%.

With O=C(NCCC(O)c1cccs1)c1ccco1 (stereo unspecified) the screen gave Mtb glucose medium: 4.343%. CN(CCCNC(=O)c1ccccc1F)CC(F)(F)F read Mtb cholesterol medium: 24.57%. Result for Cc1ccc(-c2cccc(N3CCC(NC4CCOCC4)CC3)c2)cc1 was Mtb glucose medium: 45.09%; Mtb cholesterol medium: 22.3%. With Cn1ncnc1NCc1ccc(F)cc1 the screen gave Mtb glucose medium: 4.322%; Mtb cholesterol medium: -7.168%. CC(C)n1ccnc1CN1CCCN(C(=O)CC2C=CCC2)CC1 (stereo unspecified) gave Mtb glucose medium: -27.8%; Mtb cholesterol medium: -7.486%.

Result for COc1ccc(CN2CCC(C(N)=O)C2)c(Br)c1OC (stereo unspecified) was Mtb glucose medium: -4.458% and -14.44%. O=C(c1ccco1)N1CCC(n2cc(-c3ccsc3)nn2)CC1 gave Mtb cholesterol medium: -2.825%. Cc1nc(CCCC(=O)Nc2cccc(N3CCNC3=O)c2)cs1 gave Mtb glucose medium: -7.362% and 5.853%. Result for Cc1noc(C(C)C)c1C(=O)NCc1ccc2c(c1)OCCO2 was Mtb glucose medium: 2.519%; Mtb cholesterol medium: 8.808%. CCOCC(O)CN1CCN(C(=O)Cc2cccc(C)c2)CC1 (stereo unspecified) gave Mtb glucose medium: -15.27%.

4 of the entries, repeated:

compound,Mtb glucose medium,Mtb cholesterol medium
CC(C)n1ccnc1CN1CCCN(C(=O)CC2C=CCC2)CC1 (stereo unspecified),-27.8%,-7.486%
Cc1nc(-n2nc(-c3cccs3)cc2N)[nH]c(=O)c1C,51.09%,-
O=C(NCCC(O)c1cccs1)c1ccco1 (stereo unspecified),4.343%,-
FC1(F)CCN(Cc2cccnc2)CC12CCN(c1ccccc1)C2.O=C(O)C(F)(F)F.O=C(O)C(F)(F)F.O=C(O)C(F)(F)F (stereo unspecified),79.68%,69.67%